{"source": "patent US5112519A", "about": "“Process for production of biodegradable surfactants and compositions thereof” (Mobil Oil Corporation, priority 1989, dated 1992)", "system": "inoculum from Mobil Technical Center and Paulsboro refinery waste treatment plants", "test": "Microbiological conversion of tridecanols to carbon dioxide", "data": [{"compound": "CCCCCCCCCCCCCO", "note": "[1-Tridecanol]", "values": [{"measurement": "cumulative % biodegraded to carbon dioxide", "setting": "2 days incubated", "result": 26.3, "unit": "%"}, {"measurement": "cumulative % biodegraded to carbon dioxide", "setting": "7 days incubated", "result": 36.3, "unit": "%"}, {"measurement": "cumulative % biodegraded to carbon dioxide", "setting": "14 days incubated", "result": 63.4, "unit": "%"}, {"measurement": "cumulative % biodegraded to carbon dioxide", "setting": "21 days incubated", "result": 68.3, "unit": "%"}, {"measurement": "cumulative % biodegraded to carbon dioxide", "setting": "28 days incubated", "result": 76.6, "unit": "%"}]}]}
